For 1 substance, stoichiometry N results are on record in publication PMC4650826, “Extended Loop Region of Hcp1 is Critical for the Assembly and Function of Type VI Secretion System in Burkholderia pseudomallei” (2015).

For orientation: stoichiometry N means the number of molecules, sites or subunits per partner or assembly.

Test [1] addresses Hcp1^Q46AE47A, recombinant mutant Hcp1 of Burkholderia pseudomallei (B. pseudomallei). Nature of the test: AUC.
Test [2] shares this target. The test is described as follows: dynamic light scattering; 8 mg/mL; apparent molecular weight in solution.

With “Hcp1^Q46AE47A, recombinant mutant Hcp1 of Burkholderia pseudomallei (natural protein)”, the stoichiometry N in test [1] and in test [2] was 6 in each case.
